Data: publication PMC5039624 (Scientific Reports, 2016)

Molecular target: isolated voltage-sensor domain of the voltage-gated potassium channel KvAP (VSDK), wild type (UniProt Q9YDF8)
Assay: pull-down

Substance: VSTx1 R24A (peptide)
- percent decrease in binding against wild-type VSTx1: 38%
